Measurements reported in PubChem BioAssay AID1259414 (Drosophila RNAi Screening Center, 2018).
Screen: 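Fly genes that alter Wolbachia amount inside host cells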 (primary screen). Cells: Drosophila JW18 cells infected with Wolbachia. Reagents: long dsRNA against Drosophila genes, 0.25 µg dsRNA per well of a 384-well plate. Time to read-out: 5 days. Challenge: cells persistently infected with Wolbachia before knock-down; no added drug. Measurement: 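Automated imaging of bacterial rRNA staining divided by host cell count, reported as plate-normalised robust z-score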. Direction: Wolbachia per cell robust z: higher = more Wolbachia per host cell than the plate typical. Hit rule: 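Hit when robust z is 1.5 or more, or -1.5 or less, in at least two of three replicates; excludes dsRNAs with several or no targets, genes not expressed in JW18 and well A1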.
In all, the deposit lists about 24,000 reagents; below is an unselected part of those that have a named target and a result. In the full data, about 1,210 (5%) got an active call. 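Inactive calls also include excluded dsRNAs with several or no targets, genes unexpressed in JW18, and well A1, regardless of score.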 Entries without a mark were called inactive. A plus sign joins genes that one reagent is predicted to hit.

gene,amplicon,"Wolbachia per cell robust z, rep 1","Wolbachia per cell robust z, rep 2","Wolbachia per cell robust z, rep 3"
Tbp,DRSC23111,0.691,0.522,-1.06
CG14931,DRSC02413,1.09,-0.359,1.13
CG34124,DRSC00849,-2.2,-1.43,-1.08
Rhp,DRSC20279,-0.714,-0.484,-0.0544
sens,DRSC09263,1.82,1.43,1.04
sens,DRSC23086,-1.57,-0.476,0.751
CG6428,DRSC18402,0.483,-0.969,-1.38
CG31275,DRSC16919,-1.08,0.673,1.21
CG17770 + Acam,DRSC14110,0.317,-1.19,-4.75
CG17770 + Acam,DRSC15264,0.167,0.274,0.0261
CG17770 + Acam,DRSC24252,1.19,-9.26,-0.0127
CG17770 + Acam,DRSC38964,0.244,0.509,-0.923
Ir94e,DRSC15229,0.712,-3.09,-2.14
MtnD,DRSC22733,0.0441,-1.54,-0.316
mfas,DRSC16997,-3.21,0.373,-2.16
mfas,DRSC28658,0.869,-0.169,0.625
Cyp12b2,DRSC07364,-0.344,-1.17,-0.859
Ugt35D1,DRSC15107,0.146,-0.424,1.33
CG34057,DRSC08375,0.841,-0.911,-0.257
Rab19,DRSC11260,0.133,0.232,0.205
Rab19,DRSC29485,0.654,0.0231,0.0663
Spag1,DRSC15331,1.13,-2.59,1.06
CG6204,DRSC15991,0.871,0.82,4.04
CG4022,DRSC10395,-4.46 (active),-1.56,-0.982
CG4022,DRSC27317,0.793,-0.0456,0.69
Gnpnat,DRSC15405,-0.416,0.046,0.259
wds,DRSC18852,-1.09,0.86,-0.938
CG42571,DRSC41428,0.468,-1.79,0.499
MRP,DRSC02942,-0.262,0.541,-3.22
MRP,DRSC40861,-0.226,-1.41,0.313
mRpL42,DRSC06235,-0.136,0.128,-3.43
kl-5,DRSC20707,-0.0891,0.000528,-1.51
kl-5,DRSC20736,-2.72,0.436,-9.9
kl-5,DRSC20773,-2.99,-1.66,-1.12
kl-5,DRSC21161,-1.03,0.676,-2.79
kl-5,DRSC38712,-0.0834,0.0978,0.107
pes,DRSC03033,-3.09,0.674,1.08
pes,DRSC25954,0.769,0.464,0.911
CG12661,DRSC17864,-1.68,-2.91,-1.49
CG12661,DRSC29244,-2.37,-0.697,0.239
CG15365,DRSC23021,0.209,-0.191,-0.504
CG17734,DRSC15256,-0.978,-2.85,-2.23
CG17734,DRSC29210,1.39,1.3,0.69
CG8564,DRSC10997,0.0618,0.193,-0.538
CG31224,DRSC15272,-0.215,0.382,-0.101
CG31224,DRSC16290,0.289,-0.973,0.55
Cdk4,DRSC07358,0.565,0.362,0.272
Cdk4,DRSC27263,1.62,0.858,0.977
caps,DRSC11333,-0.629,0.567,0.802
caps,DRSC22224,0.43,0.662,0.7
CG10348,DRSC23233,0.76,0.704,-0.735
CG10348,DRSC30046,-0.799,-0.194,-0.96
onecut,DRSC17175,0.472,0.576,0.636
onecut,DRSC26072,-0.802,-1.11,0.151
mthl13,DRSC05238,-0.82,-1.45,-0.777
CG10516,DRSC09738,1.03,-0.0555,0.594
Tango14,DRSC00667,-0.813,0.262,-2.17
Tango14,DRSC29882,0.267,-0.263,0.295
Mst84B,DRSC12579,-1.71,0.785,0.087
Mst84B,DRSC27767,-0.776,0.216,-0.755
c(3)G,DRSC15245,-0.0548,0.771,-5.3
c(3)G,DRSC26062,-0.152,-0.155,-0.622
nes,DRSC11375,1.07,-0.102,0.263
CG4230,DRSC02740,-0.0582,-0.725,-0.362
CG10993,DRSC19362,-0.96,0.732,1.39
Lpt,DRSC04291,0.579,0.614,0.513
Lpt,DRSC04515,1.02,0.0138,0.769
CG3123,DRSC38928,0.657,-5.68,0.548

Copied from the listing (4 entries):
gene,amplicon,"Wolbachia per cell robust z, rep 1","Wolbachia per cell robust z, rep 2","Wolbachia per cell robust z, rep 3"
wds,DRSC18852,-1.09,0.86,-0.938
CG42571,DRSC41428,0.468,-1.79,0.499
MRP,DRSC02942,-0.262,0.541,-3.22
MRP,DRSC40861,-0.226,-1.41,0.313
